Our source for the activity change, negative = inhibition values is PubChem BioAssay AID540276 (National Center for Advancing Translational Sciences (NCATS), 2011).

Most of the hits are listed elsewhere, so they are rarer here than in the full data. Records with an inconclusive call do not appear. Active and inactive are the calls of the source. Calls come from the whole dose curve; tested in HEK293 cells.
% is set by controls: 0 for no effect and ±100 for the full control effect.

This assay can be described thus: qHTS for inhibitors of binding or entry into cells for Marburg Virus. As to conditions: Marburg virus pseudotyped entry inhibition, cell reporter; at 37.8 µM (top of the series). (In general: qHTS replaces the single test concentration by a dilution series.)
Consider `Clc1ccc(N2CCN(Cc3c[nH]c4ncccc34)CC2)cc1`, for which the activity change, negative = inhibition is inactive: -24.9%.
